By UniProt entry, the sequences of proteins in these tests, tags left out. Residues count along the entry.
UniProt Q962Y6, 1-598: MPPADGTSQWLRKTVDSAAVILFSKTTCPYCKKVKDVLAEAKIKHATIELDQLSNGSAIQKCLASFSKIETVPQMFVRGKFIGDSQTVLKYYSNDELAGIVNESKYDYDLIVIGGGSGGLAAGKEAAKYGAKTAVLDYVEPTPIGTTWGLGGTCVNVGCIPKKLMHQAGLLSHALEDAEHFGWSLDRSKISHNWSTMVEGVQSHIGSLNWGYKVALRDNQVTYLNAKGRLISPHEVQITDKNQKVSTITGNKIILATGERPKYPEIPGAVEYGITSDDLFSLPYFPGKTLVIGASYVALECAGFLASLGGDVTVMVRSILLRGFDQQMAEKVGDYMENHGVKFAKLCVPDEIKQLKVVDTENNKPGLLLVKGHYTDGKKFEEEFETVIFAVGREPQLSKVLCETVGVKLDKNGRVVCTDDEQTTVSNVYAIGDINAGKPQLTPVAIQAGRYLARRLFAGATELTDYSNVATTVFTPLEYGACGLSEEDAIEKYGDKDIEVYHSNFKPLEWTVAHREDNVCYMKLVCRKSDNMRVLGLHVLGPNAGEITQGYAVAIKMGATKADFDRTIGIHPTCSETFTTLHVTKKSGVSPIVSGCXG

In paper PMC4560900, “High-throughput screening against thioredoxin glutathione reductase identifies novel inhibitors with potential therapeutic value for schistosomiasis” (Infectious Diseases of Poverty, 2015):

Experiments:
[1] = molecular target: Thioredoxin glutathione reductase from S. mansoni (SmTGR) (Schistosoma mansoni, UniProt Q962Y6); test: Endpoint SmTGR fluorescence (ThioGlo) assay; assay type: biochemical; settings: inhibition of SmTGR; for Efficacy (%): 30 μM naphthazarin defined as 100 % inhibition, means ± SEM; for IC50: means ± SEM of at least three independent experiments
[2] = tested on: larval worms (schistosomula); test: Ex vivo cidal activity against cultured larval parasites (schistosomula); settings: tested at 50, 25, 12.5, 6.25 and 3.125 μM, n.a. = no activity

`O=[N+]([O-])c1sc2ccccc2c1Nc1nnn[nH]1` was tested, and the “Efficacy (%)” value [1] was 82.47 ± 1.70%, the IC50 [1] was 14.5 µM and the “Larva: lowest concentration resulting in 100 % larval death at 48 hours” value (“Larva … in 100 % larval death at 48 hours” for short) [2] was 50 µM.
In the case of `CC1([N+](=O)[O-])C(Br)=C(Br)C(=O)C(Br)=C1Br`, the “Efficacy (%)” value [1] is reported as 98.03 ± 1.12%, the IC50 [1] is reported as 2.6 µM and the “Larva … in 100 % larval death at 48 hours” value [2] is reported as 12.5 µM.
For `CS(=O)(=O)N=C1C(Cl)=C(Cl)C(=NS(C)(=O)=O)C(Cl)=C1Cl`, the “Efficacy (%)” value [1] was 98.97 ± 0.87% and the IC50 [1] was 6.08 µM.
With `CN(C)CCC(=O)c1ccc(S(C)(=O)=O)cc1` the “Efficacy (%)” value [1] was 98.88 ± 0.79%, the IC50 [1] was 16.1 µM and the “Larva … in 100 % larval death at 48 hours” value [2] was 6.25 µM.
With `CN(C)CCCNc1sc(Br)c([N+](=O)[O-])c1[N+](=O)[O-]` the “Efficacy (%)” value [1] was 85.95 ± 2.33%, the IC50 [1] was 6.29 µM and the “Larva … in 100 % larval death at 48 hours” value [2] was 50 µM.
For `O=C1C=CC(=O)N1c1ccccc1[N+](=O)[O-]`, the “Efficacy (%)” value [1] was 99.41 ± 0.09% and the IC50 [1] was 5.36 µM.
In the case of `Clc1ccc(N2COc3ccc4ccccc4c3C2)cc1`, the “Efficacy (%)” value [1] is reported as 97.19 ± 0.74% and the IC50 [1] is reported as 7.92 µM.
For `NS(=O)(=O)c1ccc(S(=O)(=O)c2ccc([N+](=O)[O-])cn2)cc1`, the “Efficacy (%)” value [1] was 94.31 ± 1.53% and the IC50 [1] was 1.61 µM.
With `O=[N+]([O-])c1c(N2CCOCC2)cc(Cl)c2nonc12` the “Efficacy (%)” value [1] was 95.77 ± 1.08% and the IC50 [1] was 2.64 µM.
With `Cc1ccc(N2COc3ccc4ccccc4c3C2)cc1` the “Efficacy (%)” value [1] was 92.95 ± 0.40% and the IC50 [1] was 11.9 µM.
`COC(=O)c1scc(C)c1N1C(=O)C=CC1=O` was tested, and the “Efficacy (%)” value [1] was 98.65 ± 1.37%, the IC50 [1] was 3.24 µM and the “Larva … in 100 % larval death at 48 hours” value [2] was 50 µM.
In the case of `CCCCCn1c(O)nnc1Sc1ncc([N+](=O)[O-])s1`, the “Efficacy (%)” value [1] is reported as 97.51 ± 0.75%, the IC50 [1] is reported as 1.67 µM and the “Larva … in 100 % larval death at 48 hours” value [2] is reported as 12.5 µM.
For `COc1ccc(CCC(O)C2(O)CCCCC2)cc1` (stereo not shown), the “Efficacy (%)” value [1] was 97.00 ± 1.41% and the IC50 [1] was 1.58 µM.
`CN1C(=O)C(=Cc2cc(Br)c(O)c([N+](=O)[O-])c2)C(=O)N(C)C1=O` was tested, and the “Efficacy (%)” value [1] was 98.02 ± 1.44% and the IC50 [1] was 0.831 µM.
For `Cc1c(Br)c([N+](=O)[O-])c(C(=O)O)c([N+](=O)[O-])c1Br`, the “Efficacy (%)” value [1] was 91.03 ± 0.45%, the IC50 [1] was 3.26 µM and the “Larva … in 100 % larval death at 48 hours” value [2] was 25 µM.
`COc1ccc(NC(=O)Oc2c(Br)cc3oc(=O)sc3c2Br)c(C)c1` was tested, and the “Efficacy (%)” value [1] was 77.86 ± 2.78% and the IC50 [1] was 9.29 µM.
In the case of `Cc1ccc(C(=O)/C=C/S(=O)(=O)c2cc(Cl)ccc2Cl)cc1`, the “Efficacy (%)” value [1] is reported as 98.35 ± 1.32%, the IC50 [1] is reported as 0.612 µM and the “Larva … in 100 % larval death at 48 hours” value [2] is reported as 25 µM.
For `COC(=O)c1ccccc1CC1=CC(=O)C=CC1=O`, the “Efficacy (%)” value [1] was 96.87 ± 2.64% and the IC50 [1] was 6.63 µM.
In the case of `O=C(/C=C/c1ccco1)c1c(-c2ccccc2)c2cc(Br)ccc2[nH]c1=O`, the “Efficacy (%)” value [1] is reported as 97.56 ± 2.98%, the IC50 [1] is reported as 2.89 µM and the “Larva … in 100 % larval death at 48 hours” value [2] is reported as 50 µM.
For `Cc1ccc(N2C(=O)C3C4C=CC(CO)(O4)C3C2=O)cc1Br` (stereo not shown), the “Efficacy (%)” value [1] was 99.60 ± 0.26% and the IC50 [1] was 3.85 µM.
For `O=C1C(Cl)=C(Nc2ccc(S(=O)(=O)O)cc2)C(=O)c2ccccc21`, the “Efficacy (%)” value [1] was 97.22 ± 0.81% and the IC50 [1] was 2.41 µM.
For `CN(C)CCC(=O)c1ccc2oc(=O)ccc2c1`, the “Efficacy (%)” value [1] was 98.78 ± 0.76%, the IC50 [1] was 9.06 µM and the “Larva … in 100 % larval death at 48 hours” value [2] was 12.5 µM.
`Cc1cccc(NC(=O)Oc2c(Br)cc3oc(=O)sc3c2Br)c1` was tested, and the “Efficacy (%)” value [1] was 74.21 ± 1.41% and the IC50 [1] was 13.1 µM.
`N=C(N)SCCS(=O)(=O)Oc1ccc(Cl)cc1` was tested, and the “Efficacy (%)” value [1] was 95.62 ± 2.29% and the IC50 [1] was 12 µM.
For `CC(=O)C(=CNc1cc(C)c(O)c(Cl)c1)C(C)=O`, the “Efficacy (%)” value [1] was 98.51 ± 1.39% and the IC50 [1] was 7.87 µM.
With `Cc1nsc(N)c1[N+](=O)[O-]` the “Efficacy (%)” value [1] was 96.77 ± 0.49%, the IC50 [1] was 28.6 µM and the “Larva … in 100 % larval death at 48 hours” value [2] was 50 µM.
`NS(=O)(=O)c1cc([N+](=O)[O-])c(Cl)s1` was tested, and the “Efficacy (%)” value [1] was 82.32 ± 1.51%, the IC50 [1] was 3.35 µM and the “Larva … in 100 % larval death at 48 hours” value [2] was 6.25 µM.
With `CC(C)(C)C(=O)C(C#N)=C1Oc2ccc(O)cc2S1` the “Efficacy (%)” value [1] was 99.21 ± 0.21%, the IC50 [1] was 11.6 µM and the “Larva … in 100 % larval death at 48 hours” value [2] was 50 µM.
For `Cc1ccc(C(=O)C(Br)=C2OC(=N)NC2=O)cc1`, the “Efficacy (%)” value [1] was 97.36 ± 1.75%, the IC50 [1] was 2.86 µM and the “Larva … in 100 % larval death at 48 hours” value [2] was 50 µM.
`CC(=NN=C(NN=C(C)c1ccc(Br)cc1)NN=C(C)c1ccc(Br)cc1)c1ccc(Br)cc1` was tested, and the “Efficacy (%)” value [1] was 98.36 ± 1.29% and the IC50 [1] was 0.205 µM.
With `O=[N+]([O-])c1cc2c(cc1Cl)no[n+]2[O-]` the “Efficacy (%)” value [1] was 94.88 ± 1.48%, the IC50 [1] was 13.1 µM and the “Larva … in 100 % larval death at 48 hours” value [2] was 12.5 µM.
In the case of `O=C1CC(N2CCCc3ccccc32)C(=O)N1c1cc(Cl)cc(Cl)c1` (stereo not shown), the “Efficacy (%)” value [1] is reported as 98.69 ± 1.42% and the IC50 [1] is reported as 2.98 µM.
With `O=C1C(Cl)=C(Nc2cccc(O)c2)C(=O)c2ccccc21` the “Efficacy (%)” value [1] was 73.26 ± 1.61%, the IC50 [1] was 2.6 µM and the “Larva … in 100 % larval death at 48 hours” value [2] was 6.25 µM.
